Data as given in patent US8822160B2, “Molecular adaptors” (dated 2014).

Legend:
[1] = molecular target: T1, (M113F-RL2)6(M113C-D8RL2)1 (Staphylococcus aureus, UniProt P09616, G156S/I168L/K34A/M139C/M139F/N165Q/T289P/V150L); details: +100 mV, n=5
[2] = molecular target: (M113N-RL2)6(M113C-D8RL2)1 (Staphylococcus aureus, UniProt P09616, G156S/I168L/K34A/M139C/M139N/N165Q/T289P/V150L); details: ten attempts of 30 min each
[3] = molecular target: (M113N-RL2)6(T117C-D8RL3)1 (Staphylococcus aureus, UniProt P09616, G156S/I168L/K34A/M139N/N165Q/T143C/T289P/V150L)
[4] = molecular target: αHL (M113F-RL2)7 (Staphylococcus aureus, UniProt P09616, G156S/I168L/K34A/M139F/N165Q/T289P/V150L); details: 25 mM Tris.HCl, pH 8.0, 1 M KCl
[5] = molecular target: αHL (M113N-RL2)7 (Staphylococcus aureus, UniProt P09616, G156S/I168L/K34A/M139N/N165Q/T289P/V150L); details: 25 mM Tris.HCl, pH 8.0, 1 M KCl, −100 mV
[6] = molecular target: T1, (M113F-RL2)6(M113C-D8RL2)1; details: 55° C., 25 mM Tris.HCl, pH 8.0, 1 M KCl, +100 mV
[7] = molecular target: (M113F-RL2)6(M113C-D8RL2)1-βCD (Staphylococcus aureus, UniProt P09616, G156S/I168L/K34A/M139C/M139F/N165Q/T289P/V150L)

## 6-monodeoxy-6-[3-(2-pyridyldithio)propionyl]monoamino-β-cyclodextrin
[1]
  duration of the transient state preceding the permanent block: 48 ± 7 ms
[2]
  covalent attachment of βCD-PDP to Cys-113: failed to occur
[3]; total of 24 h (over 16 experiments)
  reversal of the permanent block: not reversed
[3]; −100 mV, n=5
  lifetime of the intermediate state preceding the permanent block: 5 ± 2 ms

## β-cyclodextrin
[4]; 50 μM βCD, −100 mV
  τoff of βCD: 0.68 ± 0.12 s
[4]; +100 mV
  current blockade by βCD: 70%
  mean τoff of βCD non-covalently bound: 316 ± 62 ms
[5]
  mean τoff of βCD non-covalently bound: 10.7 ± 1.5 s
[6]
  τoff for βCD: 56 ± 3.8 ms

## cis-lithocholic acid
[7]; 50 μM cis, +100 mV, 25 mM Tris.HCl, pH 8.0, 1 M KCl (n=3)
  signal on addition to the cis chamber: no signal was observed
[7]; 50 μM trans, −100 mV
  current block at the beginning and at the end of each event (level 2): 92%
  current block of the binding events (level 3): 98%
  duration of the 92% block at the beginning of each event: 200 ± 100 ms
  duration of the 92% block at the end of the event: 150 ± 100 ms
[7]; 50 μM trans, −100 mV, number of events=60
  mean τoff of the events: 8.6 ± 7.8 s
